The record followed here is PubChem BioAssay AID1224856 (National Center for Advancing Translational Sciences (NCATS), 2016).

Structures are written as SMILES. The list shows a part of the results, in another mix than the full data. Records with an inconclusive call do not appear. Active and inactive are the calls of the source. The call rests on the fitted dose curve; in most records, active means well fitted curve in the direction sought with a large enough effect; inconclusive means small, poorly fitted or top-dose-only effect, or another doubt; inactive means no such curve, though single readings can be large or run the other way.

A short description of the experiment: Cell viability assay for measurement of the protective activity of small molecules against cell death caused by Zika virus infection in human astrocytes. The settings on record: human astrocytes ZIKV-induced death, ATP luminescence, 72 h; at 46.1 µM (top of the series). From the text: National Center for Advancing Translational Sciences [NCATS] Johns Hopkins University School of Medicine Florida State University Assay Overview: Zika virus infection causes cell death in certain cell types including human neural progenitor cells (hNPCs), astrocytes, and astrocytoma cell line (SNB-19). This cell viability assay measures the ATP content (level) in human astrocytes using a luminescence readout that is proportional to viable cell numbers. Decrease in the luminescence signal after Zika virus infection indicates the cell death caused by Zika virus. Small molecule inhibitors […] the decreased luminescence signal after Zika virus infection, indicating the protective effect of that small molecule on the cell death caused by Zika virus infection. This observed protective effect of small molecules against Zika virus induced cell death may result from inhibition of virus replication or cellular response to the virus infection.
Assay Protocol Summary: The medium for astrocytes contains AM basal medium (ScienCell, Cat.# 1801), AGS (ScienCell, Cat.# 1801), 10% FBS, and 1% Pen/Strep. […] The luminescence intensity of the assay plates was measured using a ViewLux plate reader (PerkinElmer). […] The percentage inhibitions of the decreased cell viability by small molecule inhibitors were then calculated.
On to `C/C1=C2N=C(/C=C3N=C(/C(C)=C4\[N-][C@@](C)([C@@H]5N=C1[C@](C)(CCC(=O)NC[C@@H](C)OP(=O)([O-])O[C@H]1[C@@H](O)[C@@H](n6cnc7cc(C)c(C)cc76)O[C@@H]1CO)[C@H]5CC(N)=O)[C@@](C)(CC(N)=O)[C@@H]4CCC(N)=O)[C@@](C)(CC(N)=O)[C@@H]\3CCC(N)=O)C(C)(C)[C@@H]/2CCC(N)=O.[C-]#N.[Co+3]`, for which the protection from virus-induced death was inactive: -2.53%.

For the molecule `CCOP(=O)(CC)Oc1ccc([N+](=O)[O-])cc1` (configuration not stated), the protection from virus-induced death is inactive: 6.7%.
